Patent publication US5866397A, “Human protein tyrosine phosphatase OB protein” (Merck & Co., Inc., priority 1997, dated 1999)

How the values were obtained:
[1] = system: mononucleated TRAP positive cells; experiment: Formation of mononucleated TRAP positive cells in the co-culture; assay type: cell-based, mouse; conditions: ALN 10^-5 M, orthovanadate 10^-5 M, PAO 2×10^-7 M
[2] = system: multinucleated TRAP positive osteoclast-like cells
[3] = system: osteoblasts and bone marrow cells
[4] = system: rat osteoclasts
[5] = orthovanadate 10 μM or phenylarsine oxide 0.2 μM

## O=[As]c1ccccc1 (stereo not shown)
[1]
  development of mononucleated TRAP positive cells: did not block
[2]; 2×10^-7 M, PAO added after two days, counted at day seven (FIG. 10C), geldanamycin
  inhibition of formation of multinucleated TRAP positive cells: completely inhibited
[2]; inhibitor added to co-cultured cells, no concentration tied to statement
  inhibition of formation of multinucleated TRAP positive cells, in words: strongly inhibited
[2]; [5]
  inhibition of formation of the fused TRAP positive cells, in words: markedly inhibited
[2]; read-out: IC50, formation of multinucleated TRAP positive cells, D3-treated mouse co-culture, seven days (FIG. 5A, 5B)
  IC50: 200 nM
[3]; ALN 10^-5 M, orthovanadate 10^-5 M, PAO 2×10^-7 M
  toxicity for osteoblasts or bone marrow cells: no apparent toxicity
[3]; [5]
  effects on the co-cultured osteoblasts: no ill effects
[4]; 10^-6 M, FIG. 9C, 1440 min, 1 µM
  reduction of the number of resorption pits: 80%
[4]; rat osteoclasts on bone slices, 24 hours
  inhibition of bone resorption, in words: potent inhibitors
[4]; read-out: IC50, bone resorption, rat osteoclasts on bone slices, 24 hours, FIG. 7A, 7B
  IC50: 50 nM
